Measured values from several laboratories, pooled; numbers as filed in NIAID ChemDB.

Shared fields: tests in culture; organism: Candida albicans; measure: MBC

Conditions beyond the fields shown may differ between rows.

{"SMILES": "CCCCCCCCCCCOC[N+](C)(C)Cc1cc(N=Nc2ccc(C)cc2)ccc1O", "result": "1021 µM"}
{"SMILES": "COc1cc(C2CC(c3ccc4c(c3)OCO4)=NN2C(C)=O)cc(OC)c1OC", "strain": "DSM 70014", "result": "50 µg/mL"}
{"SMILES": "CCCCCCCCCCCOC[n+]1cccc(NCn2cnc3ccccc32)c1", "strain": "ATCC 10231", "result": "70 µM"}
{"SMILES": "Cc1ccc(N=Nc2ccc(O)c(C[N+](C)(C)COC3CCC(C)CC3)c2)cc1", "result": "143 µM"}
{"SMILES": "CCCCCCCC[N+](C)(C)COCC(CC)CCCC", "strain": "ATCC 10231", "result": "149 µM"}
{"SMILES": "CCCCCCCCCOC[N+](C)(C)Cc1cc(N=Nc2ccc(C)cc2)ccc1O", "result": "2166 µM"}
{"SMILES": "COc1ccc(C2=CC(c3cc(OC)c(OC)c(OC)c3)NC(SCC(=O)Nc3ccc(Cl)cc3)N2)cc1OC", "strain": "DSM 70014", "result": "50 µg/mL"}
{"SMILES": "Cc1cc(O)c(C(C)C)cc1O", "result": "125 µg/mL"}
{"SMILES": "COc1ccc(C2=NN(c3ccc([N+](=O)[O-])cc3)C(c3cc(OC)c(OC)c(OC)c3)C2)cc1OC", "strain": "DSM 70014", "result": "200 µg/mL"}
{"SMILES": "CCCCCCCCCCCOC[N+](C)(C)Cc1cc(N=Nc2ccc(Cl)cc2)ccc1O", "result": "980 µM"}
{"SMILES": "CCCCOC[n+]1cccc(NCn2nnc3ccccc32)c1", "strain": "ATCC 10231", "result": ">1439 µM"}
{"SMILES": "CCCCCCCCCCCC[N+](C)(C)COCCCCCCC", "strain": "ATCC 10231", "result": "26.4 µM"}
{"SMILES": "COc1ccc(/C=c2\\sc3n(c2=O)C(c2cc(OC)c(OC)c(OC)c2)C=C(c2ccc(OC)c(OC)c2)N=3)cc1", "strain": "DSM 70014", "result": "100 µg/mL"}
{"SMILES": "CCCCCCCCCOC[n+]1cccc(NCn2nnc3ccccc32)c1", "strain": "ATCC 10231", "result": "599 µM"}
{"SMILES": "COc1cc(C2CC(c3ccc4c(c3)OCO4)=NN2C=O)cc(OC)c1OC", "strain": "DSM 70014", "result": "25 µg/mL"}
{"SMILES": "Cc1ccc(N=Nc2ccc(O)c(C[N+](C)(C)COC3CCCCCCC3)c2)cc1", "result": "70 µM"}
{"SMILES": "c1ccc(-c2ccc(C(c3ccccc3)n3ccnc3)cc2)cc1", "result": "19.1 µg/mL"}
{"SMILES": "CCCCCCCCCCSC[N+](C)(C)CCCCCCCC", "strain": "ATCC 10231", "result": "132 µM"}
{"SMILES": "COc1ccc(C2=CC(c3cc(OC)c(OC)c(OC)c3)NC(=S)N2c2ccccc2)cc1OC", "strain": "DSM 70014", "result": "200 µg/mL"}
{"SMILES": "Cc1ccc(-c2n[nH]c3c2CCCC3)cc1", "strain": "264/624", "result": "31.2 µg/mL"}
{"SMILES": "COc1ccc(C2=CC(c3cc(OC)c(OC)c(OC)c3)N3C(=O)CSC3=N2)cc1OC", "strain": "DSM 70014", "result": "22 µg/mL"}
{"SMILES": "CCCCCCCCCCOC[N+](C)(C)Cc1cc(N=Nc2ccc(Cl)cc2)ccc1O", "result": "1008 µM"}
{"SMILES": "COc1ccc(NC(=O)CSC2NC(c3ccc4c(c3)OCO4)=CC(c3cc(OC)c(OC)c(OC)c3)N2)cc1", "strain": "DSM 70014", "result": "100 µg/mL"}
{"SMILES": "CCCCCCCCCCCC[N+](C)(C)CSCCC", "strain": "ATCC 10231", "result": "296 µM"}
{"SMILES": "CCCCCOC[n+]1cccc(NCn2nnc3ccccc32)c1", "strain": "ATCC 10231", "result": ">1383 µM"}

A second listing of 3 rows from above:

CCCCCCCCCCCOC[N+](C)(C)Cc1cc(N=Nc2ccc(C)cc2)ccc1O ; result: 1021 µM
CCCCCCCCCOC[N+](C)(C)Cc1cc(N=Nc2ccc(C)cc2)ccc1O ; result: 2166 µM
CCCCCCCCCCCC[N+](C)(C)CSCCC ; strain: ATCC 10231 ; result: 296 µM